Compound potency records, mixed from different reports. Data source: NIAID ChemDB in PubChem.

Shared fields: whole-cell or culture tests

a–b is a range or a potency band.

smiles,method,tested at,cells,strain or isolate,measure,agent,result
COc1ccc(-n2c(C(=O)NCc3ccc(F)cc3)c3n(c2=O)CCN(C(=O)c2ccc(Cl)c(Cl)c2)C3)cc1,PCR,,HepG2.117,,EC50,Hepatitis B virus,0.5–5 µM
Cc1nc(NCCCCNc2ccnc3cc(Cl)ccc23)nc(-c2ccccc2)c1C(=O)OC(C)C,,,,L 27/01,MIC99,Cryptococcus gattii,32 µg/mL
COc1ccc(-n2c(C(=O)NCc3ccccc3)c3n(c2=O)CCN(C(=O)c2ccc(Cl)c(Cl)c2)C3)c(C(F)(F)F)c1,PCR,,HepG2.117,,EC50,Hepatitis B virus,>5 µM
CCOC(=O)c1c(C)nc(NCCCCNc2ccnc3cc(Cl)ccc23)nc1-c1ccccc1[N+](=O)[O-],,,,ATCC 28957,MIC99,Cryptococcus neoformans,1.4 µg/mL
Cc1cc(CCCOc2c(C)cc(-c3noc(C(F)(F)F)n3)cc2C)on1,cytopathic effect / visual reading,,OHIO HELA-I,Isolate 1,EC50,Rhinovirus,10 µg/mL
Cc1nc(NCCCCNc2ccnc3cc(Cl)ccc23)nc(-c2ccccc2[N+](=O)[O-])c1C(=O)OC(C)C,,,,ATCC 62066,MIC99,Cryptococcus neoformans,8 µg/mL
O=[N+]([O-])c1cc([N+](=O)[O-])c2ccc(S(=O)(=O)O)cc2c1O,cytopathic effect,5 µg/mL,Human conjunctiva cells,,inhibition,Herpes simplex virus,20%
CO[C@H]1/C=C/O[C@@]2(C)Oc3c(C)c(O)c4c(O)c(c(/C=N/N5CCN(C6CCCC6)CC5)c(O)c4c3C2=O)NC(=O)/C(C)=C\C=C\[C@H](C)[C@H](O)[C@@H](C)[C@@H](O)[C@@H](C)[C@H](OC(C)=O)[C@@H]1C,,,,1296,MIC,Mycobacterium avium intracellulare,0.25 µg/mL
CCOC(=O)c1c(C)nc(NCCCCNc2ccnc3cc(Cl)ccc23)nc1-c1ccccc1,,,,L-28/02,MIC99,Cryptococcus gattii,8 µg/mL
O=S(=O)(O)c1cc(O)c2c(O)cc(S(=O)(=O)O)cc2c1,cytopathic effect,10 µg/mL,Human amnion AV3 cells,TYPE 3,inhibition,Adenovirus,40%
O=c1[nH]c(=O)n([C@@H]2O[C@H](CO)[C@@H](O)[C@@H]2O)cc1/C=C/Cl,plaque count,0.01 µg/mL,HELF,OKA,inhibition,Varicella zoster virus,100%
O=S(=O)([O-])c1cc(S(=O)(=O)[O-])c2cc(NS(=O)(=O)c3ccccc3)ccc2c1,cytopathic effect,50 µg/mL,Human amnion AV3 cells,,inhibition,Herpes simplex virus,10%
Nc1nc2c(ncn2C=C2CC2CO)c(=O)[nH]1,plaque count,,,VR5611 (ganciclovir-susceptible),EC90,Human cytomegalovirus,4.3 µM
C=C/C(C)=C/[C@@]1(C)SC(=O)C(C)=C1O,,,,SJ83 (GSHA),MIC,Escherichia coli,25 µM
N#CCOc1ccc(-n2c(C(=O)NCc3ccccc3)c3n(c2=O)CCN(C(=O)c2ccc(Br)c(Cl)c2)C3)cc1,PCR,,HepG2.117,,EC50,Hepatitis B virus,0.5–5 µM
O=S(=O)(O)c1ccc2cc(O)c(S(=O)(=O)O)cc2c1,cytopathic effect,50 µg/mL,Human amnion AV3 cells,,inhibition,Herpes simplex virus,0%
Cn1cc(C(=O)NCc2ccc(Cl)cc2)c(=O)c2cc(CN3CCOCC3)ccc21,plaque count,1.2 µM,HFF,Varicella isolate RN,inhibition,Varicella zoster virus,90%
C=CCc1ccc(OC)c(OC)c1,turbidity,,,3087,MIC90,Candida albicans,345 µg/mL
Cc1cn([C@@H]2O[C@H](CO)[C@@H](O)[C@@H]2F)c(=O)nc1N,plaque count,0.001 µg/mL,HELF,Asahikawa,inhibition,Varicella zoster virus,14%
CN[C@H]1CC[C@@H](c2ccc(Cl)c(Cl)c2)c2ccccc21,broth dilution,,,3-10,MIC90,Cryptococcus neoformans,3 µg/mL
Nc1nc(=O)n([C@@H]2O[C@H](CO)[C@@H](O)[C@@H]2F)cc1I,plaque count,0.001 µg/mL,HELF,Kawaguchi,inhibition,Varicella zoster virus,0%
O=S(=O)(O)c1ccc2ccc(S(=O)(=O)O)cc2c1,cytopathic effect,10 µg/mL,Human embryonic lung cells,TYPE 3,inhibition,Adenovirus,0%
COc1ccc(-n2c(C(=O)NCc3ccc(Cl)c(OC)c3)c3n(c2=O)CCN(C(=O)c2ccc(Br)c(Cl)c2)C3)cc1,PCR,,HepG2.117,,EC50,Hepatitis B virus,0.5–5 µM
CCC(CC)O[C@@H]1C=C(C(=O)O)C[C@H](N)[C@H]1NC(C)=O,visual reading,,MDCK,Influenza A/Sydney/05/97 (H3N2),EC50,Influenza A virus,0.18 µM
Cc1cc(-c2ccc(N=Nc3c(S(=O)(=O)O)cc4cc(S(=O)(=O)O)cc(N)c4c3O)c(C)c2)ccc1N=Nc1c(S(=O)(=O)O)cc2cc(S(=O)(=O)O)cc(N)c2c1O,cytopathic effect,50 µg/mL,Human embryonic lung cells,,inhibition,Rhinovirus,30%
CCc1cn([C@@H]2O[C@H](CO)[C@@H](O)[C@@H]2O)c(=O)[nH]c1=O,plaque count,10 µg/mL,HELF,Ohtomo,inhibition,Varicella zoster virus,51%
C/C=C\[C@@H]1C[C@H](C(=O)O)N[C@H]1[C@@H](NC(C)=O)[C@](C)(CCC)OC,plaque count,,MDCK,H1N1 PR/8/34,EC50,Influenza A virus,0.0004 µM
C[C@H](NC(=O)c1c2n(c(=O)n1-c1ccc(OC3CC3)cc1)CCN(C(=O)c1ccc(Br)c(Cl)c1)C2)c1ccc(OCC(N)=O)cc1-n1cccn1,PCR,,HepG2.117,,EC50,Hepatitis B virus,>0.5 µM
O=c1[nH]c(=O)n([C@H]2C[C@H](O)[C@@H](CO)O2)cc1I,plaque count,0.1 µg/mL,HELF,KANNO,inhibition,Varicella zoster virus,0%
C[C@@H]1Cn2c(c(C(=O)NCc3ccccc3-n3cncn3)n(-c3ccc(OC4CC4)cc3)c2=O)CN1C(=O)c1ccc(Br)c(Cl)c1,PCR,,HepG2.117,,EC50,Hepatitis B virus,0.1–0.5 µM
Nc1c(S(=O)(=O)[O-])cc2cc(S(=O)(=O)[O-])ccc2c1O,cytopathic effect,10 µg/mL,Human conjunctiva cells,,inhibition,Herpes simplex virus,0%
CCO/N=C/c1ccc(OCCC2CCN(c3ccc(Cl)nn3)CC2)cc1,neutral red,,KB,5426-CV26 (ICAM-1 receptor group 25),EC50,Rhinovirus,6.701 µM
O=C(NCc1c(F)ccc2nccnc12)c1c2n(c(=O)n1-c1ccc(OC3CC3)cc1)CCN(C(=O)c1ccc(Br)c(Cl)c1)C2,PCR,,HepG2.117,,EC50,Hepatitis B virus,<0.1 µM

A number after MIC or MFC names an inhibition level or a share of isolates. Inhibition is in % at the dose shown (toxicity tests: loss of growth or viability). ECn: concentration that inhibits the pathogen or its effect by n%. Blank or dashed fields: not listed here. Neighbouring rows are from separate reports.